Data on four compounds can be found in US20090047246A1, “NOVEL INHIBITORS OF HEPATITIS C VIRUS REPLICATION” (InterMune, Inc., priority 2007, published 2009).

Amino acid sequences for entries named in this document (tags omitted). Residues count along the entry.
UniProt P26663, 1027-1657 limits assumed: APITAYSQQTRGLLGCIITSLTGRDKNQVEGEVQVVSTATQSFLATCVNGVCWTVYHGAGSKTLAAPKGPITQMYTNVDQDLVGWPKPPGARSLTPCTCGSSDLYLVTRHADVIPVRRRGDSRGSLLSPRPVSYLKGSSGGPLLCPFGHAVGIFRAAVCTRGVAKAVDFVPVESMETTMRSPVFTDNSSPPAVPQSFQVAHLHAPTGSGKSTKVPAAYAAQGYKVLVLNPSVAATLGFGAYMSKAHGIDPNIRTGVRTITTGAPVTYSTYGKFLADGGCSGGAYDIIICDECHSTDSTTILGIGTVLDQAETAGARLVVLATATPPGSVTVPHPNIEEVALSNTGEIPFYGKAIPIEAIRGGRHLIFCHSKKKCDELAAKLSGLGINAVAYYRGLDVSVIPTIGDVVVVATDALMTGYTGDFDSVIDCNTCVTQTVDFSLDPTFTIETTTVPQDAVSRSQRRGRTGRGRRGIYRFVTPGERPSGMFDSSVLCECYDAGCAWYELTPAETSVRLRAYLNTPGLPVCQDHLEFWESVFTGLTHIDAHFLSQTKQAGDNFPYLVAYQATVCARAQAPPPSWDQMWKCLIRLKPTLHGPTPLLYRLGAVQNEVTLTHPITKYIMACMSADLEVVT

In this experiment the target is HCV NS3 helicase (Hepatitis C virus genotype 1b, UniProt P26663). Briefly: HCV Helicase Prompt FRET Assay (Example A). It is filed as biochemical. The settings on record: read-out: IC50 Activity, tables do not say whether Example A or Example B assay. Here is the method:
Test compounds were diluted to 2.5 mM by adding 6 uL of a 10 mM solution of the compound to 18 uL of DMSO in a 384-well Costar polypropylene plate. Serial dilutions (2.5×) were performed in the plate using DMSO as the diluent. 1 ul of solution was transferred from each well to a new 384-well Costar polypropylene plate.
A 2× mixture was prepared containing 100 nM helicase substrate, 500 nM helicase capture strand (CS), and 600 μM ATP by diluting stock solutions with assay buffer consisting of 25 mM MOPS, pH 7.0, and 1.5 mM MgCl2, 0.005% (v/v) Triton X-100. Stock helicase substrate was prepared by annealing a FAM-labeled oligonucleotide to a BHQ-1 labeled oligonucleotide, which were both custom synthesized and HPLC-purified at Biosearch Technologies. The FAM-labeled and BHQ-labeled oligonucleotide had the following sequences:
The helicase capture strand was custom synthesized and purified at Integrated DNA Technologies. The helicase capture strand had the following sequence:
The ATP solution was prepared in MilliQ water, pH adjusted to approximately 7 with NaOH. ATP powder was obtained from Sigma (A-7699). The concentration was determined via A260 (ext. coeff=15,400 M^−1cm^−1).
11.5 μL of assay buffer was added to all wells of the plate containing luL of test compound. 5 μL of the Compound/assay buffer mixture was added to a black polystyrene 384-well Proxiplate. A 4× Enzyme solution was prepared by diluting enzyme stock containing full-length NS3 (1-631), purified at Array BioPharma, with assay buffer. 5 μL of the 4× Enzyme solution was added to the Proxiplate and incubated for 5 minutes (for control wells lacking enzyme, assay buffer was used instead). 10 μL of 2× substrate/CS/ATP mixture was then added to all wells of Proxiplate. The final assay conditions included 50 nM Substrate, 250 nM Capture Strand, 300 μM ATP, 5 or 6 nM Enzyme, and 2% (v/v) DMSO. The reaction proceeded for 70 cycles (˜30 min.) on an Envision at room temperature. The plate was read using the Envision (top mirror=FITC; Excitation filter=FITC 485; Emission filter=FITC 535). The fluorescence intensity was recorded for a total of 30 minutes. The initial rates of the reactions was calculated and used to calculate IC50 values. The IC50 curve fitting was performed using either a 4-parameter or 5-parameter logistic equation.

As to `O=C(O)C1CCCc2c1c1ccccc1n2Cc1ccccc1` (stereo not shown), the IC50 is more than 50 µM.

For `Cc1cc([N+](=O)[O-])ccc1-n1c2c(c3ccccc31)C(C(=O)O)CCC2` (stereo not shown), the IC50 was more than 50 µM.

As to `O=C(O)C1CC=Cc2[nH]c3ccccc3c21` (stereo not shown), the IC50 is more than 50 µM.

As to `O=C(O)C1CCCc2[nH]c3ccccc3c21` (stereo not shown), the concentration for half-maximal inhibition (IC50) was more than 50 µM.
